Assay results taken from ChEMBL document CHEMBL1275243 (2010).

Columns and labels:
Bacillus anthracis [1] = assay: Antimicrobial activity against Bacillus anthracis 240 assessed as change in fluorescence threshold cycle at 2 ug/ml after 4 hrs by real-time PCR viability assay relative to control
Bacillus anthracis [2] = assay: Antimicrobial activity against Bacillus anthracis A0264 assessed as change in fluorescence threshold cycle at 1 ug/ml after 4 hrs by real-time PCR viability assay relative to control
Bacillus anthracis [3] = assay: Antimicrobial activity against Bacillus anthracis A0193 assessed as change in fluorescence threshold cycle at 8 ug/ml after 4 hrs by real-time PCR viability assay relative to control
Bacillus anthracis [4] = assay: Antimicrobial activity against Bacillus anthracis A0188 assessed as change in fluorescence threshold cycle at 1 ug/ml after 4 hrs by real-time PCR viability assay relative to control
Bacillus anthracis [5] = assay: Antimicrobial activity against Bacillus anthracis A0488 assessed as change in fluorescence threshold cycle at 1 ug/ml after 4 hrs by real-time PCR viability assay relative to control
Bacillus anthracis [6] = assay: Antimicrobial activity against Bacillus anthracis A0193 assessed as change in fluorescence threshold cycle at 2 ug/ml after 4 hrs by real-time PCR viability assay relative to control
Bacillus anthracis [7] = assay: Antimicrobial activity against Bacillus anthracis A0488 assessed as change in fluorescence threshold cycle at 2 ug/ml after 4 hrs by real-time PCR viability assay relative to control
Bacillus anthracis [8] = assay: Antimicrobial activity against Bacillus anthracis A0465 assessed as change in fluorescence threshold cycle at 2 ug/ml after 4 hrs by real-time PCR viability assay relative to control
Bacillus anthracis [9] = assay: Antimicrobial activity against Bacillus anthracis A0419 assessed as change in fluorescence threshold cycle at 4 ug/ml after 4 hrs by real-time PCR viability assay relative to control
Bacillus anthracis [10] = assay: Antimicrobial activity against Bacillus anthracis A0188 assessed as change in fluorescence threshold cycle at 4 ug/ml after 4 hrs by real-time PCR viability assay relative to control
Bacillus anthracis [11] = assay: Antimicrobial activity against Bacillus anthracis A0462 assessed as change in fluorescence threshold cycle at 4 ug/ml after 4 hrs by real-time PCR viability assay relative to control
Bacillus anthracis [12] = assay: Antimicrobial activity against Bacillus anthracis A0248 assessed as change in fluorescence threshold cycle at 4 ug/ml after 4 hrs by real-time PCR viability assay relative to control
Bacillus anthracis [13] = assay: Antimicrobial activity against Bacillus anthracis A0488 assessed as change in fluorescence threshold cycle at 4 ug/ml after 4 hrs by real-time PCR viability assay relative to control
Bacillus anthracis [14] = assay: Antimicrobial activity against Bacillus anthracis 240 assessed as change in fluorescence threshold cycle at 0.12 ug/ml after 4 hrs by real-time PCR viability assay relative to control
Bacillus anthracis [15] = assay: Antimicrobial activity against Bacillus anthracis A03768 assessed as change in fluorescence threshold cycle at 8 ug/ml after 4 hrs by real-time PCR viability assay relative to control
Bacillus anthracis [16] = assay: Antimicrobial activity against Bacillus anthracis A0149 assessed as change in fluorescence threshold cycle at 16 ug/ml after 4 hrs by real-time PCR viability assay relative to control
Bacillus anthracis [17] = assay: Antimicrobial activity against Bacillus anthracis A0264 assessed as change in fluorescence threshold cycle at 0.5 ug/ml after 4 hrs by real-time PCR viability assay relative to control
Bacillus anthracis [18] = assay: Antimicrobial activity against Bacillus anthracis A0188 assessed as change in fluorescence threshold cycle at 0.5 ug/ml after 4 hrs by real-time PCR viability assay relative to control
Bacillus anthracis [19] = assay: Antimicrobial activity against Bacillus anthracis A0462 assessed as change in fluorescence threshold cycle at 0.5 ug/ml after 4 hrs by real-time PCR viability assay relative to control
Bacillus anthracis [20] = assay: Antimicrobial activity against Bacillus anthracis A0102 assessed as change in fluorescence threshold cycle at 0.5 ug/ml after 4 hrs by real-time PCR viability assay relative to control
Bacillus anthracis [21] = assay: Antimicrobial activity against Bacillus anthracis A03768 assessed as change in fluorescence threshold cycle at 16 ug/ml after 4 hrs by real-time PCR viability assay relative to control
Bacillus anthracis [22] = assay: Antimicrobial activity against Bacillus anthracis A0462 assessed as change in fluorescence threshold cycle at 0.25 ug/ml after 4 hrs by real-time PCR viability assay relative to control
Bacillus anthracis [23] = assay: Antimicrobial activity against Bacillus anthracis A0488 assessed as change in fluorescence threshold cycle at 0.25 ug/ml after 4 hrs by real-time PCR viability assay relative to control
Bacillus anthracis [24] = assay: Antimicrobial activity against Bacillus anthracis A0465 assessed as change in fluorescence threshold cycle at 0.25 ug/ml after 4 hrs by real-time PCR viability assay relative to control
Bacillus anthracis [25] = assay: Antimicrobial activity against Bacillus anthracis A0102 assessed as change in fluorescence threshold cycle at 0.25 ug/ml after 4 hrs by real-time PCR viability assay relative to control
Bacillus anthracis [26] = assay: Antimicrobial activity against Bacillus anthracis A03768 assessed as change in fluorescence threshold cycle at 0.5 ug/ml after 4 hrs by real-time PCR viability assay relative to control
Bacillus anthracis [27] = assay: Antimicrobial activity against Bacillus anthracis A0465 assessed as change in fluorescence threshold cycle at 0.06 ug/ml after 4 hrs by real-time PCR viability assay relative to control
Bacillus anthracis [28] = assay: Antimicrobial activity against Bacillus anthracis A0149 assessed as change in fluorescence threshold cycle at 0.12 ug/ml after 4 hrs by real-time PCR viability assay relative to control
Bacillus anthracis [29] = assay: Antimicrobial activity against Bacillus anthracis A0462 assessed as change in fluorescence threshold cycle at 0.12 ug/ml after 4 hrs by real-time PCR viability assay relative to control

Row | Compound | deltaCT (Bacillus anthracis [1]) | deltaCT (Bacillus anthracis [2]) | deltaCT (Bacillus anthracis [3]) | deltaCT (Bacillus anthracis [4]) | deltaCT (Bacillus anthracis [5]) | deltaCT (Bacillus anthracis [6]) | deltaCT (Bacillus anthracis [7]) | deltaCT (Bacillus anthracis [8]) | deltaCT (Bacillus anthracis [9]) | deltaCT (Bacillus anthracis [10]) | deltaCT (Bacillus anthracis [11]) | deltaCT (Bacillus anthracis [12]) | deltaCT (Bacillus anthracis [13]) | deltaCT (Bacillus anthracis [14]) | deltaCT (Bacillus anthracis [15]) | deltaCT (Bacillus anthracis [16]) | deltaCT (Bacillus anthracis [17]) | deltaCT (Bacillus anthracis [18]) | deltaCT (Bacillus anthracis [19]) | deltaCT (Bacillus anthracis [20]) | other results
1 | O=C(O)c1cn(C2CC2)c2cc(N3CCNCC3)c(F)cc2c1=O [CIPROFLOXACIN] | 8.89 | 5.07 | 7.57 | 8.54 | 8.35 | 7.76 | 7.64 | 8.31 | 7.05 | 7.25 | 7.36 | 7.36 | 0.07 | 1.85 | 0 | 7.95 | 8.86 | 9.05 | 8.06 | 8.69 | deltaCT (Bacillus anthracis [21]): 0.41; deltaCT (Bacillus anthracis [22]): 5.36; deltaCT (Bacillus anthracis [23]): 7.28; deltaCT (Bacillus anthracis [24]): 6.96; deltaCT (Bacillus anthracis [25]): 7.09; deltaCT (Bacillus anthracis [26]): 8.13; deltaCT (Bacillus anthracis [27]): 6.15; deltaCT (Bacillus anthracis [28]): 4.65; deltaCT (Bacillus anthracis [29]): 8.61
2 | C[C@H]1c2cccc(O)c2C(=O)C2=C(O)[C@]3(O)C(=O)C(C(N)=O)=C(O)[C@@H](N(C)C)[C@@H]3[C@@H](O)[C@@H]21.O [DOXYCYCLINE] | 6.37 | 8.34 | 8.23 | 8.02 | 8.12 | 9.7 | 7.19 | 6.77 | 7.9 | 7.55 | 8.11 | 8.39 | 9.67 | 6.34 | 7.69 | 3.82 | 6.95 | 6.61 | 6.66 | 7.88 | deltaCT (Bacillus anthracis [21]): 7.68; deltaCT (Bacillus anthracis [22]): 6.29; deltaCT (Bacillus anthracis [23]): 6.93; deltaCT (Bacillus anthracis [24]): 6.53; deltaCT (Bacillus anthracis [25]): 6.25; deltaCT (Bacillus anthracis [26]): 6.54; deltaCT (Bacillus anthracis [27]): 7.81; deltaCT (Bacillus anthracis [28]): 6.99; deltaCT (Bacillus anthracis [29]): 7.66
